PubChem BioAssay AID624099 – ICCB-Longwood – 2012

- Test: 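Host factors E2 relies on to silence an HPV18 LCR reporter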 (primary screen)
- Cells: human C33A cervical carcinoma cells (HPV-negative) stably expressing BPV1 E2 and an HPV18 LCR luciferase reporter
- Reagents: siRNA pool against human genes, 40 nM
- Duration: 72 h
- Measured: 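Per-well luciferase luminescence, z-scored on each plate against the plate mean and SD with control wells left out, then averaged across three replicate plates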
- Direction: mean z-score and z-score: higher = stronger reporter signal, weaker E2 silencing
- Active means: 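Hit if mean z-score reaches 2 and two or more of three replicate z-scores also reach 2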
The deposit covers about 21,000 reagents; this is a part drawn at random. 497 of all reagents (2.4%) were called active. 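Higher z means weaker E2 silencing; only reporter increases were scored, and knock-downs that hurt cell survival may mask genuine repressor factors.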 Reagent sequences are not shown.

The opening 3 records, ahead of the listing:
| target gene | PubChem SID | mean z-score | z-score, replicate A | z-score, replicate B | z-score, replicate C | outcome |
| --- | --- | --- | --- | --- | --- | --- |
| SFXN3 (GeneID 81855) | SID134322571 | -1.62 | -1.99 | -1.63 | -1.22 | inactive |
| TOPAZ1 (GeneID 375337) | SID134327323 | 0.08 | -0.23 | 0.31 | 0.16 | inactive |
| RALYL (GeneID 138046) | SID134321680 | 0.4 | 0.59 | 0.45 | 0.18 | inactive |

The list itself, repeating the preview:
| target gene | PubChem SID | mean z-score | z-score, replicate A | z-score, replicate B | z-score, replicate C | outcome |
| --- | --- | --- | --- | --- | --- | --- |
| SFXN3 (GeneID 81855) | SID134322571 | -1.62 | -1.99 | -1.63 | -1.22 | inactive |
| TOPAZ1 (GeneID 375337) | SID134327323 | 0.08 | -0.23 | 0.31 | 0.16 | inactive |
| RALYL (GeneID 138046) | SID134321680 | 0.4 | 0.59 | 0.45 | 0.18 | inactive |
| C22orf31 (GeneID 25770) | SID134324007 | 0.9 | 0.76 | 0.93 | 1.02 | inactive |
| ABCC6 (GeneID 368) | SID134312363 | -0.42 | -0.49 | -0.56 | -0.23 | inactive |
| ANTKMT (GeneID 65990) | SID134318427 | -0.14 | 0.04 | -0.45 | 0 | inactive |
| PSMA6 (GeneID 5687) | SID134315704 | -0.95 | -1.17 | -0.87 | -0.8 | inactive |
| USP38 (GeneID 84640) | SID134311507 | 0.48 | 0.43 | 0.53 | 0.47 | inactive |
| NLRP11 (GeneID 204801) | SID134313870 | 0.39 | 0.53 | 0.49 | 0.15 | inactive |
| DPYS (GeneID 1807) | SID134313327 | 0.08 | -0.02 | -0.06 | 0.32 | inactive |
| SCARA3 (GeneID 51435) | SID134317472 | -0.1 | -0.1 | -0.28 | 0.1 | inactive |
| ZNF575 (GeneID 284346) | SID134321830 | -0.35 | -0.4 | -0.15 | -0.5 | inactive |
| LINC02860 (GeneID 285941) | SID134327745 | 1.08 | 0.96 | 1.23 | 1.05 | inactive |
| PLPP6 (GeneID 403313) | SID134329285 | -0.13 | -0.37 | -0.21 | 0.2 | inactive |
| LOC400053 (retired record) (GeneID 400053) | SID134328369 | -1.19 | -1.05 | -1.01 | -1.51 | inactive |
| DDO (GeneID 8528) | SID134314071 | 1.69 | 1.73 | 1.87 | 1.45 | inactive |
| TJAP1P1 (GeneID 392539) | SID134329185 | 0.67 | 0.48 | 0.93 | 0.58 | inactive |
| HLA-DRB3 (GeneID 3125) | SID134317438 | 2.92 | 3.14 | 2.68 | 2.92 | active |
| PMP22 (GeneID 5376) | SID134315113 | -1.25 | -1.26 | -1.22 | -1.28 | inactive |
| RPL7AP66 (GeneID 388474) | SID134328866 | -3.14 | -3.31 | -3 | -3.11 | inactive |
| POLE3 (GeneID 54107) | SID134313332 | -0.34 | -0.27 | -0.39 | -0.36 | inactive |
| ABHD6 (GeneID 57406) | SID134313541 | 0.86 | 1.21 | 0.65 | 0.74 | inactive |
| SACK1H (GeneID 286077) | SID134326829 | 0.72 | 0.78 | 0.59 | 0.79 | inactive |
| HCCS (GeneID 3052) | SID134313993 | -0.57 | -0.66 | -0.53 | -0.53 | inactive |
| PAK6 (GeneID 56924) | SID56478794 | -0.96 | -1.01 | -0.92 | -0.95 | inactive |
| STEAP4 (GeneID 79689) | SID134318552 | 0.27 | 0.11 | 0.52 | 0.17 | inactive |
| LOC401314 (retired record) (GeneID 401314) | SID134327744 | 0.69 | 0.33 | 0.73 | 1.02 | inactive |
| CEP44 (GeneID 80817) | SID134318752 | -0.52 | -0.75 | -0.61 | -0.18 | inactive |
| EFNA5 (GeneID 1946) | SID134315974 | -0.53 | -0.56 | -0.39 | -0.63 | inactive |
| ZFYVE16 (GeneID 9765) | SID134323982 | -1.42 | -1.49 | -1.54 | -1.22 | inactive |
| DMXL1 (GeneID 1657) | SID134316388 | 1.27 | 1.19 | 1.37 | 1.24 | inactive |
| CHEK1 (GeneID 1111) | SID56478613 | -0.42 | -0.18 | -0.19 | -0.9 | inactive |
| CLCF1 (GeneID 23529) | SID134324294 | -0.66 | -0.6 | -0.6 | -0.79 | inactive |
| MARCHF9 (GeneID 92979) | SID134319597 | 0.34 | 0.42 | 0.21 | 0.39 | inactive |
| PSEN1 (GeneID 5663) | SID134310708 | -0.64 | -0.81 | -0.85 | -0.25 | inactive |
| MFGE8 (GeneID 4240) | SID134325043 | 0.29 | 0.14 | 0.34 | 0.39 | inactive |
| CCN6 (GeneID 8838) | SID134315871 | -0.94 | -0.77 | -0.93 | -1.13 | inactive |
| ATPAF1 (GeneID 64756) | SID134317947 | 1.33 | 1.2 | 1.73 | 1.06 | inactive |
| PRORSD1P (GeneID 344405) | SID134325503 | 0.32 | 0.07 | 0.41 | 0.46 | inactive |
| CRLF3 (GeneID 51379) | SID134321697 | -0.11 | -0.19 | -0.08 | -0.05 | inactive |
| LOC400842 (retired record) (GeneID 400842) | SID134329049 | 0.41 | 0.57 | 0.15 | 0.52 | inactive |
| JMY (GeneID 133746) | SID134320894 | 1.45 | 1.61 | 1.11 | 1.64 | inactive |
| PEX16 (GeneID 9409) | SID134316256 | 0.32 | 0.42 | 0.52 | 0.01 | inactive |
| SLC35G3 (GeneID 146861) | SID134320412 | -0.42 | 0.23 | -0.56 | -0.91 | inactive |
| ENDOD1 (GeneID 23052) | SID134326635 | 0.15 | 0.33 | -0.05 | 0.17 | inactive |
| DOLPP1 (GeneID 57171) | SID134321850 | -0.83 | -0.98 | -0.76 | -0.76 | inactive |
| ARAP2 (GeneID 116984) | SID134314062 | 1.52 | 1.28 | 1.86 | 1.44 | inactive |
| REXO1 (GeneID 57455) | SID134325025 | -0.32 | -0.4 | -0.38 | -0.18 | inactive |
| BICD1 (GeneID 636) | SID134323281 | 0.69 | 0.8 | 0.53 | 0.75 | inactive |
| NRXN1 (GeneID 9378) | SID134316252 | 0.05 | 0.04 | 0.1 | 0 | inactive |
| FBLN5 (GeneID 10516) | SID134321546 | 0.48 | 0.3 | 0.54 | 0.61 | inactive |
| ZFYVE26 (GeneID 23503) | SID134328929 | -0.75 | -0.82 | -0.71 | -0.71 | inactive |
| ZNF552 (GeneID 79818) | SID134318592 | 0.13 | 0.43 | 0.25 | -0.29 | inactive |
| NGF (GeneID 4803) | SID134323448 | -1.2 | -1.58 | -0.95 | -1.06 | inactive |
| RAB15 (GeneID 376267) | SID134329150 | 0.1 | 0.59 | -0.05 | -0.26 | inactive |
| VCY (GeneID 9084) | SID134311804 | -0.09 | -0.14 | -0.19 | 0.05 | inactive |
| HINT1 (GeneID 3094) | SID134322352 | -0.79 | -0.71 | -0.77 | -0.87 | inactive |
